Data published in patent US6534523B1, “Hepatitis C inhibitor tri-peptides” (Boehringer Ingelheim (Canada) Ltd., priority 1998, dated 2003).

The chains behind the UniProt entries cited, without tags or fusion partners. Where a name states a change or a piece, a line headed by the entry shows the natural chain unless it says otherwise. Residues count along the entry.
UniProt P26663, 1027-1206 limits assumed: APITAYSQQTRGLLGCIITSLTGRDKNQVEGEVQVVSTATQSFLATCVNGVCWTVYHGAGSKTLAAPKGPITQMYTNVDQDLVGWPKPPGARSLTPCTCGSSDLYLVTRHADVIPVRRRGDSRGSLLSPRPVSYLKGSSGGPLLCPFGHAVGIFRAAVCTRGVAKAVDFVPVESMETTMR

Target: HCV NS3 protease (UniProt P26663)
Protocol: Recombinant HCV NS3 Protease/NS4A Cofactor Peptide Radiometric Assay
The enzyme was cloned, expressed and prepared according to the protocol described in Example 36. The enzyme was stored at −80° C., thawed on ice and diluted just prior to use in the assay buffer containing the NS4A cofactor peptide.
The substrate used for the NS3 protease/NS4A cofactor peptide radiometric assay, DDIVPC-SMSYTW, is cleaved between the cysteine and the serine residues by the enzyme. The sequence DDIVPC-SMSYTW corresponds to the NS5A/NS5B natural cleavage site in which the cysteine residue in P2 has been substituted for a proline. The peptide substrate DDIVPC-SMSYTW and the tracer biotin-DDIVPC-SMS[^125I-Y]TW are incubated with the recombinant NS3 protease and the NS4A peptide cofactor KKGSVVIVGRIILSGRK (molar ratio enzyme:cofactor 1:100) in the absence or presence of inhibitors. The separation of substrate from products is performed by adding avidin-coated agarose beads to the assay mixture followed by filtration. The amount of SMS[^125I-Y]TW product found in the filtrate allows for the calculation of the percentage of substrate conversion and of the percentage of inhibition.
The enzymatic reaction was initiated by the addition of the enzyme/NS4A peptide solution and the assay mixture was incubated for 40 min at 23° C. under gentle agitation. Ten (10) μL of 0.5N NaOH were added and 10 μL 1 M MES, pH 5.8 were added to quench the enzymatic reaction. […]
The NS2-NS5B-3′ non coding region was cloned by RT-PCR into the pCR®3 vector (Invitrogen) using RNA extracted from the serum of an HCV genotype 1b infected individual (provided by Dr. Bernard Willems, Hôpital St-Luc, Montréal, Québec, Canada). […] Fluorescence of the N-terminal product was monitored on a Perkin-Elmer LS-50B fluorometer equipped with a 96-well plate reader (excitation wavelength: 325 nm; emission wavelength: 423 nm). […]

SMILES	IC50 (Table 6) [nM]	IC50 (Table 8) [nM]
C=CC1CC1(NC(=O)C1CC(Oc2cc(CN(C)c3ccccc3)nc3ccccc23)CN1C(=O)C(NC(=O)OC(C)(C)C)C(C)(C)C)C(=O)O (stereo not drawn)	3000	
C=CC1CC1(NC(=O)C1CC(Oc2cc(N3CCN(C)CC3)nc3ccccc23)CN1C(=O)C(NC(=O)OC(C)(C)C)C(C)(C)C)C(=O)O (stereo not drawn)	720	
C=CC1CC1(NC(=O)C1CC(Oc2cc(-c3ccccc3)nc3cc(OC)ccc23)CN1C(=O)C(NC(=O)CC(C)(C)C)C(C)(C)C)C(=O)O (stereo not drawn)		120

Where two headings read alike, the source gives them in different places. The structures given here were assigned with low confidence; some may be wrong.
